Pooled drug test results. Numbers come from NIAID ChemDB, via PubChem.

Shared fields: whole-cell or culture tests; species: Mycobacterium tuberculosis

a–b is a range or a potency band. MIC50, MIC90 and the like: level of inhibition, or share of isolates inhibited. Inhibition is in % at the dose shown (toxicity tests: loss of growth or viability). Conditions beyond the fields shown may differ between rows. Blank or dashed fields: not listed here. MIC bound: limit read from a one-dose screen.

structure | strain | changes | cells | method | measure | dose | result
Cc1cn(-c2ccccc2)c(C)c(C(=O)O)c1=O | H37Rv |  |  | BACTEC | MIC bound |  | >12.5 µg/mL
CSc1ccc(-c2cc(CN3CCSCC3)c(C)n2-c2ccc(F)cc2)cc1 | H37Rv |  |  |  | MIC90 |  | 13.81 µM
c1ccc(CSc2ccncc2)cc1 | H37Rv |  |  |  | inhibition | 6.25 µg/mL | 22%
CCn1cc(C(=O)O)c(=O)c2cc(F)c(N3CCN(CC(=O)c4ccccc4)CC3)cc21 | H37Rv |  |  | BACTEC | inhibition | 6.25 µg/mL | 53%
OC[C@H]1O[C@@H](n2ccc3c(-c4ccoc4)nc(Cl)nc32)C(O)C1O | My 331/88 |  |  | MTT | MIC |  | >250 µM
Cc1ccc(-c2cc(CN3CCOCC3)c(C)n2-c2ccc(F)cc2)cc1 | H37Rv DR6 | V681I M492T V564A |  |  | MIC |  | 5.4 µM
CCn1cc(C(=O)O)c(=O)c2cc(F)c(N3CCN(C/C(C)=N/O)CC3)c(F)c21 | H37Rv |  |  | BACTEC | inhibition | 6.25 µg/mL | 34%
COc1cccc(Sc2ccncc2)c1 | H37Rv |  |  |  | MIC90 |  | >6.25 µg/mL
O=C(Nc1ccccc1)N1CCc2c(c(-c3ccccc3)nn2Cc2cn(-c3ccccc3F)nn2)C1 | H37Rv |  |  | visual reading | MIC |  | >200 µM
NC(=O)c1cnccn1 | Isolate 8989 |  |  |  | MIC |  | >900 µg/mL
O=C(Nc1ccccc1)N1CCc2c(c(-c3ccccc3)nn2Cc2cn(-c3ccccc3Br)nn2)C1 | H37Rv |  |  | visual reading | MIC |  | 180 µM
Clc1nc(Sc2ccccn2)c2[nH]cnc2n1 | H37Rv |  |  |  | inhibition | 6.25 µg/mL | 33%
NNC(=O)c1ccncc1 | H37Rv |  |  |  | MIC |  | 0.04 µg/mL
CC(=O)OCC1=C(C(=O)O)N2C(=O)[C@@H](NC(=O)Cc3cccs3)[C@H]2SC1 | H37Rv |  |  |  | MIC |  | >16 µg/mL
O=C(Nc1ccccc1)N1CCc2c(c(-c3ccccc3)nn2Cc2cn(-c3ccc(F)c(F)c3)nn2)C1 | H37Rv |  |  | visual reading | MIC |  | 195 µM
CC1(C)[C@H](C(=O)O)N2C(=O)C[C@H]2S1(=O)=O | Isolate 2 |  |  |  | MIC |  | >16 µg/mL
Cc1ccc(CSc2nc(=O)[nH]c3nc[nH]c23)cc1 | H37Ra |  |  |  | MIC |  | >12.8 µg/mL
CN1CCN(c2cc3c(cc2F)c(=O)c(C(=O)O)cn3-c2ccc(N)cc2)CC1 | H37Rv |  |  | BACTEC | inhibition | 6.25 µg/mL | 84%
C=C1CCC2C(C)(CO)C(O)CCC2(C)C1CCC1=CCOC1=O | H37Rv |  |  | BACTEC | MIC |  | ≥12.5 µg/mL
CC(=O)Nc1ccc(C(N)=S)cc1 | H37Rv (INH-resistant) |  |  |  | MIC |  | 512 µM
CC(=O)NC[C@H]1CN(c2ccc(N3C=NOCC3)c(F)c2)C(=O)O1 | H37Rv |  |  | GFP / reporter gene | MIC |  | 125 µg/mL
CN(CNC(=O)c1cnccn1)Cc1ccccc1 | ATCC 27294 |  |  |  | MIC |  | 100 µg/mL
CC(=O)N1c2ccccc2C23CCN4CC5=CCOC(O)C(C5CC42)C13 | H37Rv |  |  | BACTEC | inhibition | 12.5 µg/mL | -1%
CC[C@H]1OC(=O)[C@H](C)C(=O)[C@H](C)[C@@H](O[C@@H]2O[C@H](C)C[C@H](N(C)C)[C@H]2O)[C@](C)(OC)C[C@@H](C)C(=O)[C@H](C)[C@H]2N(CCCCn3cnc(-c4cccnc4)c3)C(=O)O[C@]12C | Isolate 900216 |  |  |  | MIC |  | >40 µg/mL
O=C(/C=C/c1ccc(O)c(O)c1)NCC(=O)NC(Cc1ccccc1)C(=O)O | H37Rv |  |  | BACTEC | MIC bound |  | >12.5 µg/mL
Nc1nc(-c2cc3ccccc3o2)c2ccn([C@@H]3O[C@H](CO)C(O)C3O)c2n1 | My 331/88 |  |  | MTT | MIC |  | >250 µM
CN1CCN(CNC(=O)c2cnccn2)CC1 | ATCC 27294 |  |  |  | MIC |  | 300 µg/mL
O=C(Cc1cccs1)N[C@@H]1C(=O)N2C(C(=O)[O-])=C(C[n+]3ccccc3)CS[C@H]12 | H37Ra |  |  |  | MIC |  | 8 µg/mL
CCn1cc(C(=O)O)c(=O)c2cc(F)c(N3CCN(CC(C)=O)CC3)c(F)c21 | H37Rv |  | VERO | BACTEC | inhibition | 6.25 µg/mL | 99%
Clc1ccc(N=c2cc3n(-c4ccc(Cl)cc4)c4ccccc4nc-3cc2Nc2ccc(Cl)cc2)cc1 | H37Rv |  |  |  | MIC |  | 3.3 µg/mL
Cc1cccc(Sc2ccncc2)c1 | H37Rv |  |  |  | inhibition | 6.25 µg/mL | 0%
CCCCN(CCCC)CNC(=O)c1cnc(C)cn1 | PZA-resistant |  |  |  | MIC |  | 100 µg/mL
CNc1ccc(C(N)=S)cc1 | H37Rv (INH-resistant) |  |  |  | MIC |  | 32 µM
O=C(Nc1ccccc1)N1CCc2c(c(-c3ccccc3)nn2Cc2cn(-c3ccc4c(c3)OCO4)nn2)C1 | H37Rv |  |  | visual reading | MIC |  | 192 µM
CCc1ccc(-c2cc(CN3CCOCC3)c(C)n2-c2ccc(F)cc2)cc1 | H37Rv DR5 | G253E D46G |  |  | MIC |  | 0.66 µM
O=C1C(C2CCCCC2)=C2OCC3COC2(O3)c2ccccc21 | H37Rv |  |  | BACTEC | inhibition | 12.5 µg/mL | 59%
CSc1ccc(-c2cc(CN3CCOCC3)c(C)n2-c2ccc(F)cc2)cc1 | H37Rv |  |  |  | MIC90 |  | 72.47 µM
NNC(=O)c1ccncc1 | H37Rv (INH-resistant) |  |  |  | MIC |  | ≥1024 µM
CCN(CC)CCCC(C)Nc1cc(C)nc(Nc2nc3cc(Cl)c(Cl)cc3[nH]2)n1 | H37Rv |  |  | resazurin | inhibition | 6.25 µg/mL | 57%
Cc1cc(C2=NOC(c3cccc([N+](=O)[O-])c3)C2)ccc1O | H37R (MTB) |  |  |  | MIC |  | 6.25 µM
NC(=S)c1ccc(N)cc1 | H37Rv (drug-susceptible) |  |  |  | MIC |  | 256 µM
Clc1nc(Sc2ncc[nH]2)c2[nH]cnc2n1 | H37Rv |  |  |  | MIC90 |  | >6.25 µg/mL
Cc1cc(C2=NOC(c3ccccc3)C2)ccc1O | H37R (MTB) |  |  |  | MIC |  | >6.25 µM
O=C(N/N=C/c1ccc(O)cc1O)c1ccncc1 | H37Rv |  |  |  | MIC |  | 1 µg/mL
CCOC(=O)c1cn(-c2ccc(N)cc2F)c2cc(N3CCN(C)CC3)c(F)cc2c1=O | H37Rv |  |  | BACTEC | inhibition | 6.25 µg/mL | 0%
CS(=O)(=O)OCCN(CCOS(C)(=O)=O)c1ccc(C=Nc2ccc3ccccc3c2)c(Cl)c1.Cl | H37Rv |  |  | BACTEC | inhibition | 12.5 µg/mL | 0%
OC[C@H]1O[C@@H](n2ccc3c(-c4cccc5c4oc4ccccc45)nc(Cl)nc32)C(O)C1O | My 331/88 |  |  | MTT | MIC |  | >250 µM
COc1ccc(C2CC(c3ccc(O)c(C)c3)=NO2)cc1OC | H37R (MTB) |  |  |  | MIC |  | >6.25 µM
Cc1cc(N(CCC#N)CCC#N)ccc1/C=C1N=C(/C=C/c2ccccc2)N(NC(=O)CC(=O)Nc2ccccc2Cl)C\1=O | H37Rv |  |  | BACTEC | MIC bound |  | >12.5 µg/mL
CC(C)N=c1cc2n(-c3ccccc3)c3ccccc3nc-2cc1Nc1ccccc1 | H37Rv |  |  |  | MIC |  | 0.3 µg/mL
Cc1nc(-c2cccs2)c2ccn([C@@H]3O[C@H](CO)C(O)C3O)c2n1 | My 331/88 |  |  | MTT | MIC |  | >250 µM
Cc1cnc(C(=O)NCN2CCOCC2)cn1 | PZA-susceptible |  |  |  | MIC |  | 100 µg/mL
C[C@H]1COc2c(N3CCN(C)CC3)c(F)cc3c(=O)c(C(=O)O)cn1c23 | Isolate 9 |  |  |  | MIC |  | 4 µg/mL
CC(=O)NCC1CN(c2ccc(C(C)=O)cc2)C(=O)O1 | H37RV (SM-R) |  |  |  | MIC |  | 0.97 µg/mL
NNC(=O)c1ccncc1 | Isolate 5 |  |  |  | MIC |  | 8 µg/mL
CC(=O)N[C@H]1CN(c2ccc(N3C=NN(C)CC3)c(F)c2)C(=O)O1 | 20 clinical isolates |  |  | resazurin | MIC90 |  | 1000 µg/mL
CCCC[C@H]1C(=O)O[C@H](C)[C@H](NC(=O)c2cccc(NC=O)c2O)C(=O)O[C@@H](C)[C@@H]1OC(=O)CC(C)C | H37Rv |  |  | BACTEC | MIC |  | ≥12.8 µg/mL
CCCN=c1cc2n(-c3ccc(Cl)cc3)c3ccccc3nc-2cc1Nc1ccc(Cl)cc1 | H37Rv |  |  |  | MIC |  | 0.66 µg/mL
COc1ccc2c(c1)SC1=NNC(=O)CN12 | H37Rv |  |  | resazurin | inhibition | 6.25 µg/mL | -7%
Cc1nc(C)c2ccn([C@@H]3O[C@H](CO)C(O)C3O)c2n1 | My 331/88 |  |  | MTT | MIC |  | >250 µM
NC1CCN(c2c(F)cc3c(=O)c(C(=O)O)cn(C4CC4)c3c2Cl)C1 | 20 strains |  |  |  | MIC90 |  | 1 µg/mL
Cc1cc(C(N)=S)ccn1 | H37Rv (drug-susceptible) |  |  |  | MIC |  | 64–128 µM
O=C(O)[C@H]1/C(=C/CO)O[C@@H]2CC(=O)N21 | H37Rv |  |  |  | MIC |  | >16 µg/mL
CN(C)CCCCNc1ccc(NCCCCN(C)C)c2c1C(=O)c1c(O)ccc(O)c1C2=O | H37Rv |  |  | BACTEC | MIC bound |  | >12.5 µg/mL
CCN(CC)CNC(=O)c1cnc(N(CC)CC)cn1 | ATCC 35828 |  |  |  | MIC |  | 16 µg/mL
COC(=O)NC[C@H]1CN(c2ccc(N3C=NN(C(N)=O)CC3)c(F)c2)C(=O)O1 | 20 clinical isolates |  |  | resazurin | MIC90 |  | 0.5 µg/mL
NC(=S)c1ccccc1 | H37Rv (INH-resistant) |  |  |  | MIC |  | 1024 µM
O=C(N/N=C/c1ccccc1Cl)c1cccnc1 | H37Rv |  |  | BACTEC | inhibition | 12.5 µg/mL | 10%
CCCN(CCC)CNC(=O)c1cnccn1 | ATCC 27294 |  |  |  | MIC |  | 100 µg/mL
CC12CCC(O1)C1CN(CC/C(N)=N/O)CC12 | H37Rv |  |  | BACTEC | inhibition | 12.5 µg/mL | 1%
CC(=O)N[C@H]1CN(c2ccc(N3C=NN(S(N)(=O)=O)CC3)c(F)c2)C(=O)O1 | 20 clinical isolates |  |  | resazurin | MIC90 |  | 500 µg/mL
O=c1nc(SCc2ccc(Cl)cc2[N+](=O)[O-])c2[nH]cnc2[nH]1 | H37Rv |  |  |  | inhibition | 6.25 µg/mL | 41%
CCOC(=O)c1sc(N/N=C2/NC(=O)/C(=C/c3ccc([N+](=O)[O-])cc3)S2)nc1C | H37Rv |  |  | resazurin | MIC bound |  | >6.25 µg/mL
OC[C@H]1O[C@@H](n2ccc3c(-c4ccccc4)nc(F)nc32)C(O)C1O | My 331/88 |  |  | MTT | MIC |  | >250 µM
NC(=O)c1cnccn1 | ATCC 35828 |  |  |  | MIC |  | >300 µg/mL
Cc1cc(C2=NOC(c3ccccc3Cl)C2)ccc1O | INH-resistant M. tuberculosis |  |  |  | MIC |  | 0.83 µM
N#Cc1c(O)oc2cccnc12 | H37Rv |  |  | BACTEC | inhibition | 12.5 µg/mL | -16%
COc1ccc(OC)c(Sc2ccncc2)c1 | H37Rv |  |  |  | inhibition | 6.25 µg/mL | 15%
CN(C)c1cc(C(N)=S)ccn1 | H37Rv (INH-resistant) |  |  |  | MIC |  | 512 µM
CCc1ccc(-n2cc(Cn3nc(-c4ccccc4)c4c3CCN(C(=O)Nc3ccccc3)C4)nn2)cc1 | H37Rv |  |  | visual reading | MIC |  | 49.64 µM
Nc1nc(-c2ccccc2)c2ccn([C@@H]3O[C@H](CO)C(O)C3O)c2n1 | My 331/88 |  |  | MTT | MIC |  | >250 µM
CN1CCN(c2ccc(N3C[C@H](CO)OC3=O)cc2F)C=N1 | H37Rv |  |  | GFP / reporter gene | MIC |  | 500 µg/mL
CCOC(=O)c1cc(N/N=C2/CCCNC2=O)c[nH]1 | H37Rv |  |  | BACTEC | inhibition | 6.25 µg/mL | 16%
CCOc1ccc(C(N)=S)cc1 | H37Rv |  |  |  | MIC |  | 512 µM
Cn1cc(/C=C/C(=O)c2ccccc2[N+](=O)[O-])c2ccccc21 | H37Rv |  |  | BACTEC | inhibition | 6.25 µg/mL | -1%
COC(=O)N[C@H]1CN(c2ccc(N3C=NN(C4=NC(=O)CS4)CC3)c(F)c2)C(=O)O1 | H37Rv |  |  | GFP / reporter gene | MIC |  | 125 µg/mL
Oc1ccccc1-c1nnc2n1N=C(c1ccc(-c3ccccc3)cc1)CS2 | H37Rv |  |  | BACTEC | inhibition | 12.5 µg/mL | 0%
OC[C@H]1O[C@@H](n2ccc3c(-c4ccoc4)nc(F)nc32)C(O)C1O | My 331/88 |  |  | MTT | MIC |  | >250 µM
CNC(=O)OCc1c(C)oc(-c2ccc(Cl)c(Cl)c2)c1COC(=O)NC | H37Rv |  |  | BACTEC | MIC bound |  | >12.5 µg/mL
CO[C@H]1/C=C/O[C@@]2(C)Oc3c(C)c(O)c4c(O)c(c(/C=N/N5CCN(C)CC5)c(O)c4c3C2=O)NC(=O)/C(C)=C\C=C\[C@H](C)[C@H](O)[C@@H](C)[C@@H](O)[C@@H](C)[C@H](OC(C)=O)[C@@H]1C | Isolate 5 |  |  |  | MIC |  | >32 µg/mL

6 of the rows above, restated:

| structure | strain | changes | cells | method | measure | dose | result |
|---|---|---|---|---|---|---|---|
| Cc1ccc(-c2cc(CN3CCOCC3)c(C)n2-c2ccc(F)cc2)cc1 | H37Rv DR6 | V681I M492T V564A |  |  | MIC |  | 5.4 µM |
| CNc1ccc(C(N)=S)cc1 | H37Rv (INH-resistant) |  |  |  | MIC |  | 32 µM |
| CCOc1ccc(C(N)=S)cc1 | H37Rv |  |  |  | MIC |  | 512 µM |
| CCCCN(CCCC)CNC(=O)c1cnc(C)cn1 | PZA-resistant |  |  |  | MIC |  | 100 µg/mL |
| CCCN=c1cc2n(-c3ccc(Cl)cc3)c3ccccc3nc-2cc1Nc1ccc(Cl)cc1 | H37Rv |  |  |  | MIC |  | 0.66 µg/mL |
| NNC(=O)c1ccncc1 | H37Rv |  |  |  | MIC |  | 0.04 µg/mL |